The record followed here is PubChem BioAssay AID493005 (National Center for Advancing Translational Sciences (NCATS), 2010).

Amino acid sequences for entries named in this document (tags omitted).
UniProt Q99816, whole entry: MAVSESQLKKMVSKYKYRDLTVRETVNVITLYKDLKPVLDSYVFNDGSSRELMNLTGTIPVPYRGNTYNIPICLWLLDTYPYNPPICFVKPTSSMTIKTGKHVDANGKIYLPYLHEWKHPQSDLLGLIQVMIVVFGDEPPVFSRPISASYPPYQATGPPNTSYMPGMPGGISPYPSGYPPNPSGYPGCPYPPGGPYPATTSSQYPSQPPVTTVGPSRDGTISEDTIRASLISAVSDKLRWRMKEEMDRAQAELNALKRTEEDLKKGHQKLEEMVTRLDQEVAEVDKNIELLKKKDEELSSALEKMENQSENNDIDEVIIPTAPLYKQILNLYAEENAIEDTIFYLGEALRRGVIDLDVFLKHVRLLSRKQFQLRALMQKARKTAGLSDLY

Molecules are shown by their SMILES. Only a part is listed here, and it is no random draw. Activity calls are given as the source filed them. The call rests on the fitted dose curve; in most records, active means well fitted inhibition curve with a large enough effect in the main read-out, with a control signal flat (not every such curve was filed as active); inconclusive means small, poorly fitted or top-dose-only effect, or effect the other way, or a change in a side signal; inactive means no such curve, though single readings can be large or run the other way.

This experiment deals with Tumor susceptibility gene 101 protein (Homo sapiens) (UniProt Q99816). The experiment can be described thus: qHTS Assay for Iinhibitors of HIV-1 Budding by Blocking the Interaction of PTAP/TSG101. Further: % of control where 0% means no effect. The following applies: Fluorescence polarization, FITC-PTAP peptide / Tsg101 binding; at 115 µM (top of the series). An excerpt: NIH Molecular Libraries Probe Production Network [MLPCN] NIH Chemical Genomics Center [NCGC] MLPCN Grant: 1 R03 MH087464-01A1 PI Name: Dr. Eric Freed, NCI NCGC Assay Overview: Stages of the HIV-1 replication cycle, specifically virus assembly and release, provide underexploited targets for the development of novel antiviral inhibitors. The late stages of HIV-1 replication are mediated by the Gag precursor protein, Pr55Gag. Expression of Pr55Gag is both necessary and sufficient for the production of virus-like particles from Gag-expressing cells. The Gag protein hijacks key host proteins involved in endocytic machinery of the host cell to promote endosomal processing and viral budding. The budding process requires a direct interaction between a […] (PTAP) motif in the p6 domain of Gag and the cellular endosomal sorting protein known as Tsg101. In this way, the Gag PTAP motif promotes the host cells to recruit viral particles to the plasma membrane where the new viral particles are released, effectively turning the host cells into viral factories. A fluorescence anisotropy assay has been developed to quantitatively measure the PTAP-Tsg101 interaction which can be used to screen for inhibitors of this interaction.
NCGC Assay Protocol Summary: Two uL of the Tsg101 binding domain in buffer (10 mM HEPES pH 7.5; 0.15 M NaCl, 0.01% Tween 20; 3 mM EDTA;0.1 mM TCEP) was dispensed into Greiner black MB 1536-well plates (final concentration 10 uM). Then, 23 nL of compounds or DMSO were delivered to each well using a pin tool. Finally, 2 uL of a FITC-labeled peptide containing the PTAP motif (1) in the same buffer was dispensed (50 nM final concentration) and the binding was allowed to proceed for 20 min. at r.t. Fluorescent polarization was determined using FITC excitation and polarized emission filters on a Perkin Elmer Viewlux. Keywords: Tsg101, PTAP, Gag, HIV, fluorescent polarization, MLSMR, MLPCN, NIH Roadmap, qHTS, NCGC
A general note: Quantitative high-throughput screening tests each substance at several concentrations.
As for `CP(=O)(Nc1ccc(SC(F)(F)F)cc1)Oc1ccccc1` (centres undefined), the activity change, negative = inhibition is inactive: -7.56%.
With `CCCOc1ccc(NP(C)(=O)Oc2ccc(Cl)cc2)cc1` (centres undefined) the figure was inactive: -3.68%; with `COc1ccccc1OP(C)(=O)Nc1c(C)cccc1C` (centres undefined), inactive: -5.48%; with `CN1CCCCC1COC(=O)C1(O)c2ccccc2CCc2ccccc21` (centres undefined), inactive: -3.51%.
On to `O=[N+]([O-])c1cc([N+](=O)[O-])c(Nc2nnnn2CCO)c([N+](=O)[O-])c1`, for which the activity change, negative = inhibition is inactive: -6.88%.
The result for `CC1=C2N=C(C=C3N=C(C(C)=C4[N-][C@@](C)([C@@H]5N=C1[C@](C)(CCC(=O)NC[C@@H](C)OP(=O)([O-])O[C@H]1[C@@H](O)[C@@H](n6cnc7cc(C)c(C)cc76)O[C@@H]1CO)[C@H]5CC(N)=O)[C@@](C)(CC(N)=O)[C@@H]4CCC(N)=O)[C@@](C)(CC(N)=O)[C@@H]3CCC(N)=O)C(C)(C)[C@@H]2CCC(N)=O.[C-]#N.[Co+3]` reads inactive: 0.487%.
The result for `CC1=NCCc2c1[nH]c1ccccc21.O=[N+]([O-])c1cc([N+](=O)[O-])c(O)c([N+](=O)[O-])c1` reads inactive: -1.17%; that for `CP(=O)(Nc1cccc(Br)c1)Oc1ccccc1` (centres undefined), inactive: -4.99%; that for `Cc1cc(C)cc(OP(C)(=O)Nc2ccccn2)c1` (centres undefined), inactive: -6.28%.
On to `Cc1ccc(C)c(NP(C)(=O)Oc2ccccc2)c1` (centres undefined), for which the activity change, negative = inhibition was inactive: 0.112%.
Turning to `Cc1cc(C)cc(OP(C)(=O)Nc2ccc(C)cc2C)c1` (centres undefined), the activity change, negative = inhibition is inactive: -3.46%.
On to `CCOC(=O)c1ccc(NP(C)(=O)Oc2cc(C)cc(C)c2)cc1` (centres undefined), for which the activity change, negative = inhibition was inactive: -6.7%.
For the compound `COc1ccccc1OP(C)(=O)Nc1cccc(Br)c1` (centres undefined), the activity change, negative = inhibition is inactive: -5.2%.
For `O=C(OCCN1CCN(CCOCc2ccccc2)CC1)C(O)(c1ccccc1)c1ccccc1`, the activity change, negative = inhibition is inactive: -2.91%.
On to `CC(C)c1ccc(OP(C)(=O)Nc2ccc(SC(F)(F)F)cc2)cc1` (centres undefined), for which the activity change, negative = inhibition was inactive: 11.4%.
For the compound `CP(=O)(Nc1ccccc1F)Oc1ccccc1` (centres undefined), the activity change, negative = inhibition was inactive: -7.26%.
With `CCCCCOc1ccc(NP(C)(=O)Oc2ccc(Cl)cc2Cl)cc1` (centres undefined), the activity change, negative = inhibition is inactive: -4.55%.
Turning to `CP(=O)(Nc1ccccc1)Oc1ccc(F)cc1` (centres undefined), the activity change, negative = inhibition is inactive: -10.5%.
The result for `CCN(CC)CCCOC(=O)C(O)(c1ccccc1)C1CCCCC1` (centres undefined) reads inactive: 0.148%; that for `Cc1c([N+](=O)[O-])cc([N+](=O)[O-])c(Br)c1[N+](=O)[O-]`, inactive: -7.19%.
As for `COc1ccc(OP(C)(=O)Nc2ccc(SC(F)(F)F)cc2)cc1` (centres undefined), the activity change, negative = inhibition was inactive: -2.1%.
With `CCOC(=O)c1ccc(NP(C)(=O)Oc2ccc(F)cc2)cc1` (centres undefined) the figure was inactive: -4.63%; with `Cc1c(C(c2ccc3c(c2)OCO3)c2c(C)n(C)n(-c3ccccc3)c2=O)c(=O)n(-c2ccccc2)n1C.O=[N+]([O-])c1cc([N+](=O)[O-])c(O)c([N+](=O)[O-])c1`, inactive: 0.0439%; with `Cc1cc(-c2cccc3ccccc23)c(C)cn1.O=[N+]([O-])c1cc([N+](=O)[O-])c(O)c([N+](=O)[O-])c1`, inactive: -8.27%.
For the compound `O=[N+]([O-])c1ccc(OP2(=O)COCCO2)cc1` (centres undefined), the activity change, negative = inhibition was inactive: -7.04%.
With `COc1ccc(NP(C)(=O)Oc2ccccc2OC)cc1` (centres undefined), the activity change, negative = inhibition was inactive: 0.035%.
For the compound `CN(C)CCOC(=O)C(O)(c1ccccc1)C1CCCCC1` (centres undefined), the activity change, negative = inhibition was inactive: -6.03%.
The result for `COc1ccc(OP(C)(=O)Nc2cccc(Br)c2)cc1` (centres undefined) reads inactive: -4.13%; that for `Cc1ccccc1NP(C)(=O)Nc1ccccc1C`, inactive: -2.09%; that for `CP(=O)(Nc1ccc2c(c1)OCCO2)Oc1ccccc1` (centres undefined), inactive: -0.623%.
The result for `CCOP(C)(=S)SCC(=O)NC(C)(CC)C(=O)O` (centres undefined) reads inactive: -8.37%.
In the case of `CP(=O)(Nc1ccc(SC(F)(F)F)cc1)Oc1ccc(F)cc1` (centres undefined), the activity change, negative = inhibition is inactive: 2.42%.
As to `CN(C)C(=O)c1c([N+](=O)[O-])cc([N+](=O)[O-])cc1[N+](=O)[O-]`, the activity change, negative = inhibition is inactive: -1.57%.
Consider `CP(=O)(Nc1ccc(Cl)cc1)Oc1ccc(F)cc1` (centres undefined), for which the activity change, negative = inhibition was inactive: -6.45%.
The result for `CC(C)(C)c1ccc(OP(C)(=O)O)cc1` reads inactive: -5.32%; that for `COc1ccccc1OP(C)(=O)Nc1ccccc1Br` (centres undefined), inactive: -0.0578%.
Regarding `CP(=O)(Oc1ccccc1)N1CCOC1=O` (centres undefined), the activity change, negative = inhibition is inactive: -1.42%.
As to `CCc1ccc(OP(C)(=O)Nc2cccnc2)cc1` (centres undefined), the activity change, negative = inhibition is inactive: -7.06%.
For the compound `COc1ccccc1OP(C)(=O)Nc1c(C)n(C)n(-c2ccccc2)c1=O` (centres undefined), the activity change, negative = inhibition was inactive: -10.2%.
For the compound `O=C(OCCCN1CCCC1)C(O)(c1ccccc1)C1CCCCC1` (centres undefined), the activity change, negative = inhibition was inactive: 1.51%.
With `CCN(CC)CC(O)COC(=O)C(O)(c1ccccc1)C1CCCCC1` (centres undefined) the figure was inactive: -5.65%; with `COc1ccc(OP(C)(=O)Nc2ccc(Br)cc2)cc1` (centres undefined), inactive: 0.98%; with `CP(=O)(OC12CC3CC(CC(C3)C1)C2)OC12CC3CC(CC(C3)C1)C2`, inactive: -4.83%.
With `CCOC(=O)c1ccc(NP(C)(=O)Oc2ccc(Cl)cc2)cc1` (centres undefined) the figure was inactive: 0.0631%; with `Nc1ccc2c(ccc3cccnc32)n1.O=[N+]([O-])c1cc([N+](=O)[O-])c(O)c([N+](=O)[O-])c1`, inactive: -9.76%.
On to `CP(=O)(OCCOc1ccccc1)OCCOc1ccccc1`, for which the activity change, negative = inhibition was inactive: -12.7%.
With `CP(=O)(Nc1ccc(Cl)cc1Cl)Oc1ccccc1` (centres undefined) the figure was inactive: -7.31%; with `CCCCCCCCCCCCCCCC1C[N+](C)(C)CCOP(C)(=O)O1` (centres undefined), inactive: 2.6%; with `COc1ccc(OP(C)(=O)Nc2ccccc2Br)cc1` (centres undefined), inactive: -3.26%.
With `COc1ccccc1OP(C)(=O)Nc1ccc(C)c(C)c1` (centres undefined) the figure was inactive: -12%; with `Cc1cc(C)cc(OP(C)(=O)Nc2cccc(C(F)(F)F)c2)c1` (centres undefined), inactive: -0.758%.
The result for `CCc1ccc(OP(C)(=O)O)cc1` reads inactive: -2%.
As for `CP(=O)(Nc1ccccn1)Oc1ccccc1` (centres undefined), the activity change, negative = inhibition was inactive: -7.91%.
As for `COc1ccccc1OP(C)(=O)Nc1ccc(C)cc1C` (centres undefined), the activity change, negative = inhibition is inactive: -4.98%.
On to `O=[N+]([O-])c1cc([N+](=O)[O-])c(Nc2ccccn2)c([N+](=O)[O-])c1`, for which the activity change, negative = inhibition was inactive: -0.684%.
In the case of `Cc1c(NP(C)(=O)Oc2ccc(C(C)C)cc2)c(=O)n(-c2ccccc2)n1C` (centres undefined), the activity change, negative = inhibition is inactive: -1.14%.
For the compound `CN(C)CCOC(=O)C(O)(c1ccccc1)C1CCCC1` (centres undefined), the activity change, negative = inhibition is inactive: -3.38%.
With `COc1ccc(OP(C)(=O)Nc2ccccn2)cc1` (centres undefined), the activity change, negative = inhibition was inactive: -9.5%.
With `COc1ccccc1OP(C)(=O)Nc1ccc(Br)cc1` (centres undefined), the activity change, negative = inhibition was inactive: -2.36%.
